Results of unrelated studies side by side (data: NIAID ChemDB).

Shared fields: host cell toxicity; cells: MT-4; read-out: CC50

CCn: concentration that lowers growth or viability of the cells by n%. An empty or dashed field is not shown. Lines come from different laboratories, so protocols vary.

structure | method | conditions | result
COc1ccnc2[nH]cc(C(=O)C(=O)N3CCN(C(=O)c4ccccc4)C[C@H]3C)c12 |  |  | >225 µM
O=C1/C(=N\n2c(-c3ccncc3)n[nH]c2=S)c2cc(Br)ccc2N1CN1CCCCC1 |  |  | 11.5 µM
C=CCOc1cccc(Cc2[nH]c(=S)[nH]c(=O)c2CC)c1 | MTT |  | 86 µM
O=C(O)/C=C\c1ccc(O)c(O)c1/C(=C/c1ccc(O)c(O)c1)C(=O)O | MTT |  | 6.4 µM
O=C(/C=C(\O)c1ncn[nH]1)c1ccc(Cc2ccc(F)cc2)o1 |  |  | 12 µM
O=C1/C(=N\n2c(-c3ccncc3)n[nH]c2=S)c2ccccc2N1CN1CCCCC1 |  |  | 10.1 µM
O=C1c2ccccc2C(=O)c2c1ccc(O)c2O |  |  | 79 µg/mL
CN(C)CN1C(=O)/C(=N\n2c(-c3ccncc3)n[nH]c2=S)c2cc(Br)ccc21 |  |  | 11.3 µM
Cc1cc(C)nc(NS(=O)(=O)c2ccc(N=C3C(=O)N(CN4CCN(c5ccc([N+](=O)[O-])cc5)CC4)c4ccccc43)cc2)n1 | MTT |  | 42.62 µM
CCc1c(Cc2cc(C)cc(C)c2)n(COC/C(Br)=C(\Br)c2ccccc2)c(=O)[nH]c1=O | MTT |  | 36 µM
C=CCCc1cccc(Cc2[nH]c(=S)[nH]c(=O)c2CC)c1 | MTT |  | 80 µM
CC1(C)c2nc(C(=O)NCc3ccc(F)cc3)c(O)c(=O)n2CCN1Cc1cn[nH]n1 | microscopy |  | >1 µM
Cc1ccc(-c2cc(-c3ccc(Cl)cc3)nc(/N=C3\C(=O)N(CN4CCOCC4)c4ccccc43)n2)cc1 | MTT |  | 2.7 µM
Cc1cn([C@@H]2O[C@H](COC(=O)C(C)(C)C)[C@@H](O)[C@H]2OC(=O)C(C)(C)C)c(=O)n(CC(=O)O)c1=O |  |  | 168 µM
NC(=O)[C@@H](Nc1ccccc1[N+](=O)[O-])c1c(Cl)cccc1Cl |  |  | 66 µM
COc1ccc(N(C)C(=O)[C@H](Cc2cc(F)cc(F)c2)NC(=O)CN2CCNCC2=O)cc1 | MTT |  | >272 µM
CCc1c(Cc2cc(C)cc(C)c2)nc(SC)[nH]c1=O | MTT |  | >100 µM
CCOCn1c(Cc2cccc(OCC=NO)c2)c(CC)c(=O)[nH]c1=O | MTT |  | >100 µM
Cc1cn([C@@H]2O[C@H](CO[Si](C)(C)C(C)(C)C)[C@@H](O)[C@H]2O[Si](C)(C)C(C)(C)C)c(=O)n(CCCCC(=O)O)c1=O |  |  | 16 µM
Cc1ccc(-c2cc(-c3ccc(Cl)cc3)nc(/N=C3\C(=O)N(CN4CCOCC4)c4ccc(Br)cc43)n2)cc1 | MTT |  | 1.9 µM
Cc1ccc(NC(=S)OC[C@@H](C)N2C(=O)c3ccccc3C2=O)cc1 |  |  | >100 µM
Cc1ccc(-c2cc(-c3ccc(Cl)cc3)nc(/N=C3\C(=O)N(CN4CCCCC4)c4ccc(Br)cc43)n2)cc1 | MTT |  | <1 µM
C=CCOCn1c(Cc2cccc(OCC=C)c2)c(CC)c(=O)[nH]c1=O | MTT |  | 44 µM
CC1(C)c2nc(C(=O)NCc3ccc(F)cc3)c(O)c(=O)n2CCN1Cc1nn[nH]n1 | microscopy |  | >1 µM
CC(=O)c1ccccc1NC(C(N)=O)c1c(Cl)cccc1Cl |  |  | 130 µM
Cc1cc(C(Cl)c2ccc(C(C)(C)C)cc2)nc(Nc2ccc(C#N)cc2)n1 | MTT |  | 31.9 µM
CCc1c(Cc2cc(C)cc(C)c2)n(COCC#Cc2ccccc2C(F)(F)F)c(=O)[nH]c1=O | MTT |  | 25 µM
Cc1ccc2c(c1)C(=O)N(CCOC(=S)Nc1ccc(Cl)c(Cl)c1)C2=O |  |  | >100 µM
COc1ccc(/C=C/CSc2nc(C(C)c3c(F)cccc3F)c(C)c(=O)[nH]2)cc1 | MTT |  | >11.7 µM
CCOC(=O)C(=O)CC(=O)/C=C/c1cc(-c2ccccc2)cn1Cc1ccc(F)cc1 | resazurin |  | 26.9 µM
COc1ccc(/C(C)=N/NC(=O)c2ccncc2)c(OC)c1 | MTT |  | 12 µM
Nc1nc2c(ncn2[C@H]2CC[C@@H](CO)O2)c(=O)[nH]1 |  |  | 486 µM
Cc1cc(C)nc(NS(=O)(=O)c2ccc(N=C3C(=O)N(CN4CCN(c5cc6c(cc5F)c(=O)c(C(=O)O)cn6C)CC4C)c4ccccc43)cc2)n1 | MTT |  | 128.6 µM
CC(=O)N[C@H]1CSSC[C@@H](C(=O)N[C@@H](CCC(N)=O)C(=O)O)NC(=O)[C@H](Cc2cnc[nH]2)NC(=O)[C@H](Cc2ccc(O)cc2)NC1=O | MTT | 2 d | >2.5 µM
Cc1ccc(NC(=S)OCCN2C(=O)c3ccc(C(C)(C)C)cc3C2=O)cc1 |  |  | >100 µM
Nc1ccn([C@@H]2CO[C@@H](CO)S2)c(=O)n1 |  |  | >100 µg/mL
CCn1cc(C(=O)O)c(=O)c2cc(F)c(N3CCN(CN4C(=O)C(=Nc5ccc(S(=O)(=O)Nc6nc(C)cc(C)n6)cc5)c5cc(F)ccc54)CC3)cc21 | MTT |  | 132.1 µM
O=C1/C(=N\n2c(-c3ccncc3)n[nH]c2=S)c2cc(Cl)ccc2N1CN1CCCCC1 |  |  | 10.8 µM
CCC(Cc1cccc(NS(=O)(=O)c2ccc(C(F)(F)F)cn2)c1)c1cc(O)c(C(c2ccccc2)C2CC2)c(=O)o1 |  |  | 71.4 µM
Cc1cn([C@@H]2O[C@H](CO[Si](C)(C)C(C)(C)C)[C@@H](O)[C@H]2O[Si](C)(C)C(C)(C)C)c(=O)n(Cc2nn[nH]n2)c1=O |  |  | 2.1 µM
Nc1ncnc2c1ncn2[C@@H]1CO[C@@H](CO)S1 |  |  | >100 µg/mL
COc1ccc(N2CCN(CN3C(=O)C(=Nc4ccc(S(=O)(=O)Nc5nc(C)cc(C)n5)cc4)c4cc(F)ccc43)CC2)cc1 | MTT |  | 43.32 µM
CN(C)CC1c2nc(C(=O)NCc3ccc(F)cc3)c(O)c(=O)n2CCN1Cc1ccn(C)n1 | microscopy |  | >10 µM
CCC(C)Sc1nc(Cc2cc(C)cc(C)c2)cc(=O)[nH]1 | MTT |  | 133 µM
Cc1cc(CNC(=O)c2nc3n(c(=O)c2O)CCN(C(C)C)CC3N(C)C(=O)C(=O)N(C)C)ccc1F | microscopy |  | >1 µM
CCOC(=O)C(=O)CC(=O)/C=C/c1cccn1Cc1ccc(C)cc1C | resazurin |  | 15.4 µM
CNOC(=O)Cn1c(=O)c(C)cn([C@@H]2O[C@H](CO[Si](C)(C)C(C)(C)C)[C@@H](O[Si](C)(C)C(C)(C)C)[C@H]2O)c1=O |  |  | 4.2 µM
Cc1ccc(Cn2cccc2/C=C/C(=O)CC(=O)C(=O)O)c(C)c1 | resazurin |  | 25.5 µM
COc1ccc(/C=C/CSc2nc(Cc3c(Cl)cccc3Cl)c(C)c(=O)[nH]2)cc1 | MTT |  | 0.96 µM
Cc1ccc(-c2cc(-c3ccc(Cl)cc3)nc(/N=C3\C(=O)N(CN4CCOCC4)c4ccc(Cl)cc43)n2)cc1 | MTT |  | 3 µM
CCc1c(Cc2cc(C)cc(C)c2)n(COCC#Cc2ccc(O)cc2)c(=O)[nH]c1=O | MTT |  | 20 µM
Nc1ccn([C@H]2C=C[C@@H](CO)O2)c(=O)n1 |  |  | 30 µM
Cc1c(C(C)c2c(F)cccc2F)nc(SC/C=C/c2ccc([N+](=O)[O-])cc2)[nH]c1=O | MTT |  | >11.28 µM
Cc1ccc(NC(=S)OCC(C)N2C(=O)c3ccc(C)cc3C2=O)cc1 |  |  | >100 µM
Cc1cn([C@H]2CO[C@@H](CO)S2)c(=O)[nH]c1=O |  |  | >100 µg/mL
C=CCCc1cccc(Cc2[nH]c(=O)[nH]c(=O)c2CC)c1 | MTT |  | 66 µM
CC(C)(C)[Si](C)(C)OC[C@H]1O[C@@H](n2cnc3c(=O)n(CC(=O)O)cnc32)[C@H](O)[C@@H]1O[Si](C)(C)C(C)(C)C |  |  | 84 µM
CCc1c(Cc2cc(C)cc(C)c2)n(COCC#Cc2ccccc2[N+](=O)[O-])c(=O)[nH]c1=O | MTT |  | 10 µM
CC(=O)c1ccc(C)cc1N[C@H](C(N)=O)c1c(Cl)cccc1Cl |  |  | 420 µM
O=C(NCc1ccc(Cl)c(Cl)c1)c1cnc(C(=O)NO)c(O)c1CO |  |  | 50 µM
CCOCn1c(Cc2cccc(CCC3CO3)c2)c(CC)c(=O)[nH]c1=O | MTT |  | >100 µM
O=C(/C=C/c1cccn1Cc1ccccc1Cl)CC(=O)C(=O)O | resazurin |  | >50 µM
C=CCCc1cccc(Cc2c(CC)c(=O)n(COCC)c(=O)n2COCC)c1 | MTT |  | 45 µM
CC(=O)c1ccc(C)cc1N[C@@H](C(N)=O)c1c(Cl)cccc1Cl |  |  | 270 µM
COC(=O)Cn1c(=O)c(C)cn([C@@H]2O[C@H](CO[Si](C)(C)C(C)(C)C)[C@@H](O[Si](C)(C)C(C)(C)C)[C@H]2O)c1=O |  |  | 4.3 µM
Cc1ccc2c(c1)C(=O)N(CCOC(=S)Nc1ccc(F)cc1)C2=O |  |  | >100 µM

A second listing of 4 rows from above:

structure	method	conditions	result
COc1ccc(/C=C/CSc2nc(C(C)c3c(F)cccc3F)c(C)c(=O)[nH]2)cc1	MTT		>11.7 µM
CC(=O)c1ccc(C)cc1N[C@@H](C(N)=O)c1c(Cl)cccc1Cl			270 µM
CCn1cc(C(=O)O)c(=O)c2cc(F)c(N3CCN(CN4C(=O)C(=Nc5ccc(S(=O)(=O)Nc6nc(C)cc(C)n6)cc5)c5cc(F)ccc54)CC3)cc21	MTT		132.1 µM
C=CCOCn1c(Cc2cccc(OCC=C)c2)c(CC)c(=O)[nH]c1=O	MTT		44 µM